Results of unrelated studies side by side (data: NIAID ChemDB).

Shared fields: tests in culture; organism: Aspergillus fumigatus

ECn is the concentration giving n% inhibition of infection, replication or growth.

| compound | strain or isolate | changes | read by | measure | tested at | value |
|---|---|---|---|---|---|---|
| C[C@@H](c1nc(-c2ccc(C#N)cc2)cs1)[C@](O)(Cn1cncn1)c1ccc(F)cc1F | 50 isolates | - | - | Geometric mean MIC | - | 1.27 µg/mL |
| CCCCCCCC/C=C/CCCCCCCCC(=O)Oc1c(OC)cc2ccnc3c2c1N(C)C=C3 | - | - | - | EC50 | - | >15 µg/mL |
| COC(=O)[C@H]1[C@@H]2C[C@@H](O[C@@H]3O[C@H](C)[C@@H](O)[C@H](N)[C@@H]3O)/C=C/C=C/C=C/C=C/C=C/C=C/C=C/[C@H](C)[C@@H](O)[C@H](C)[C@H](C)OC(=O)C[C@H](O)C[C@H](O)[C@@H](O)CC[C@H](O)C[C@H](O)C[C@](O)(C[C@@H]1O)O2 | H11-20 | - | - | MLC | - | 0.58 µg/mL |
| CCC(C)CC(C)CCCCCCCCC(=O)N[C@H]1C[C@@H](O)[C@H](NCCN)NC(=O)[C@@H]2[C@@H](O)CCN2C(=O)[C@H]([C@H](O)CCN)NC(=O)[C@H]([C@H](O)[C@@H](O)c2ccc(O)cc2)NC(=O)[C@@H]2C[C@@H](O)CN2C(=O)[C@H]([C@@H](C)O)NC1=O | - | - | broth dilution | MEC | - | 0.06 µg/mL |
| CCCCCCCCCCCCCCCC(=O)NC(CCCN)C(N)=O | ATCC 42203 | - | broth dilution | MIC | - | >100 µg/mL |
| Clc1ccc(COC(Cn2ccnc2)c2ccc(Cl)cc2Cl)c(Cl)c1 | 2 strains | - | - | Mean MIC | - | 2.83 µg/mL |
| CCCCCCCCCCCCCC(=O)NC(CCCN)C(N)=O | ATCC 42203 | - | broth dilution | MIC | - | >100 µg/mL |
| COc1cc(NS(=O)(=O)c2ccc(N)cc2)nc(OC)n1 | IFM 47450 | - | - | MIC | - | 128 µg/mL |
| CCC1/C=C/C=C/C=C/C=C/C(OC2OC(C)C(O)C(N)C2O)CC2OC(O)(CC(O)CC(O)C(O)/C=C/C(=O)OC1C)CC(O)C2C(=O)O | CGMCC 3.3552 | - | broth dilution | MFC | - | 12.56 µg/mL |
| C[C@@H](c1ncncc1F)[C@](O)(Cn1cncn1)c1ccc(F)cc1F | 94 isolates | - | - | Geometric mean MFC | - | 1.69 µg/mL |
| O=C(NCc1ccc(Cl)c(Cl)c1)c1ccccc1O | 231 | - | - | Geometric mean MIC | - | 403.4 µM |
| Cc1cc(NS(=O)(=O)c2ccc(N)cc2)nc(C)n1 | IFM 51126 | - | - | MIC | - | ≥256 µg/mL |
| COc1ccc(/C=C/C(=O)OC2CCN(CC(O)(Cn3cncn3)c3ccc(F)cc3F)CC2)cc1OC | 0504656 | - | broth dilution | MIC80 | - | 1.893 µM |
| O=C(NCc1ccc(F)cc1)c1ccccc1O | 231 | - | - | Geometric mean MIC | - | 392.1 µM |
| C[C@H]1[C@H](O)[C@@H](C)/C=C/C=C/C=C/C=C/C=C/C=C/C=C/[C@H](O[C@@H]2O[C@H](C)[C@@H](O)[C@H](N)[C@@H]2O)C[C@@H]2O[C@](O)(C[C@@H](O)C[C@@H](O)CC[C@H](O)[C@@H](O)C[C@@H](O)CC(=O)O[C@H]1C)C[C@H](O)[C@H]2C(=O)O | - | - | agar diffusion | zone | 10 mg/disc | 0 mm |
| CCN1CCC(O)(/C=C/c2ccc(OC)cc2)C(C(=O)/C=C/c2ccc(OC)cc2)C1 | 20 strains | - | - | Mean MIC | - | 100 µM |
| C[C@H]1[C@H](O)[C@@H](C)/C=C/C=C/C=C/C=C/C=C/C=C/C=C/[C@H](O[C@@H]2O[C@H](C)[C@@H](O)[C@H](N)[C@@H]2O)C[C@@H]2O[C@](O)(C[C@@H](O)C[C@@H](O)CC[C@H](O)[C@@H](O)C[C@@H](O)CC(=O)O[C@H]1C)C[C@H](O)[C@H]2C(=O)O | 19 isolates | - | - | MFC90 | - | 4 µg/mL |
| CCCCCCCCCC(=O)NC(CCCN)C(=O)NC(CCCN)C(=O)NC(CCCN)C(=O)NC(CCCN)C(=O)NC(CCCN)C(N)=O | ATCC 42203 | - | broth dilution | MIC | - | 50 µg/mL |
| OO | - | mpkC deletion | agar | MIC99 | - | 4000 µM |
| Cc1nnc(NS(=O)(=O)c2ccc(N)cc2)s1 | IFM 51126 | - | - | MIC | - | ≥256 µg/mL |
| Clc1ccc2c(c1)nnc1nnnn12 | CCM F-373 | - | - | inhibition | 22 µg/mL | 95% |
| CCCCCCCCCC(=O)NC(CCCN)C(=O)NC(CCCN)C(N)=O | ATCC 42203 | - | broth dilution | MIC | - | 100 µg/mL |
| CCC(C)CC(C)CCCCCCCCC(=O)N[C@H]1C[C@@H](O)[C@H](NCCN)NC(=O)[C@@H]2[C@@H](O)CCN2C(=O)[C@H]([C@H](O)CCN)NC(=O)[C@H]([C@H](O)[C@@H](O)c2ccc(O)cc2)NC(=O)[C@@H]2C[C@@H](O)CN2C(=O)[C@H]([C@@H](C)O)NC1=O | 26 isolates | - | - | Geometric mean MEC | - | 0.29 µg/mL |
| CCCCCCCC(=O)NC(CCCN)C(=O)NC(CCCN)C(=O)NC(CCCN)C(=O)NC(CCCN)C(N)=O | ATCC 42203 | - | broth dilution | MIC | - | >100 µg/mL |
| CCCCCc1ccc(C(=O)Oc2c(OC)cc3ccnc4c3c2N(C)C=C4)cc1 | - | - | - | EC50 | - | 10 µg/mL |
| CCN1CCC(O)(/C=C/c2ccc(C)cc2)C(C(=O)/C=C/c2ccc(C)cc2)C1 | 20 strains | - | - | Mean MIC | - | 92.2 µM |
| CCC(C)n1ncn(-c2ccc(N3CCN(c4ccc(OC[C@H]5CO[C@](Cn6cncn6)(c6ccc(Cl)cc6Cl)O5)cc4)CC3)cc2)c1=O | 50 strains | - | - | Mean MIC | - | 0.67 µg/mL |
| CCC(C)n1ncn(-c2ccc(N3CCN(c4ccc(OC[C@H]5CO[C@](Cn6cncn6)(c6ccc(Cl)cc6Cl)O5)cc4)CC3)cc2)c1=O | 62 isolates | - | - | Geometric mean MIC | - | 0.676 µg/mL |
| Cc1ccc(C(C)C)c(O)c1 | F17 | - | - | MLC | - | 0.64 µg/mL |
| COc1cc2ccnc3c2c(c1OC(=O)c1cc(F)ccc1F)N(C)C=C3 | - | - | - | EC50 | - | >15 µg/mL |
| CCCCCCCCCCCCCCCCCC(=O)NC(CCCN)C(N)=O | ATCC 42203 | - | broth dilution | MIC | - | >100 µg/mL |
| CCc1ccc(C(=O)Oc2c(OC)cc3ccnc4c3c2N(C)C=C4)cc1 | - | - | - | EC50 | - | >15 µg/mL |
| C[C@@H](c1ncncc1F)[C@](O)(Cn1cncn1)c1ccc(F)cc1F | 62 isolates | - | - | MIC90 | - | 0.5 µg/mL |
| Nc1ccc(S(=O)(=O)Nc2ccnn2-c2ccccc2)cc1 | IFM 53412 | - | - | MIC | - | 64 µg/mL |
| COc1cc2ccnc3c2c(c1OC(=O)c1ccc(CCl)cc1)N(C)C=C3 | - | - | - | EC50 | - | >15 µg/mL |

A second listing of 2 rows from above:

| compound | strain or isolate | changes | read by | measure | tested at | value |
|---|---|---|---|---|---|---|
| Nc1ccc(S(=O)(=O)Nc2ccnn2-c2ccccc2)cc1 | IFM 53412 | - | - | MIC | - | 64 µg/mL |
| Cc1nnc(NS(=O)(=O)c2ccc(N)cc2)s1 | IFM 51126 | - | - | MIC | - | ≥256 µg/mL |

Neighbouring rows are from separate reports. A number after MIC or MFC names an inhibition level or a share of isolates. An empty or dashed field is not shown. Inhibition is in % at the dose shown (toxicity tests: loss of growth or viability). Zones are inhibition diameters on agar.